Results of unrelated studies side by side (data: NIAID ChemDB).

All rows: whole-cell or culture tests

Inhibition is in % at the dose shown (toxicity tests: loss of growth or viability).

compound | read by | species | tested at | strain or isolate | measure | cells | value
C/C=C\[C@@H]1C[C@H](C(=O)O)N[C@H]1[C@@H](NC(C)=O)[C@](C)(CCC)OC | plaque count | Influenza A virus |  | H1N1 TEXAS/36/91 | EC50 | MDCK | 0.0004 µM
Nc1nc2c(ncn2CCC(CO)CO)c(=O)[nH]1 | cytopathic effect | Varicella zoster virus |  | Oka BVaraU-resistant | EC50 | HEL | 64.8 µM
CC(C)Nc1nc2cc(Cl)c(Cl)cc2n1[C@H]1O[C@@H](CO)[C@H](O)[C@@H]1O | hybridisation | Human cytomegalovirus |  | C9213 | EC50 | MRC-5 | 0.04 µM
O=c1[nH]c(=O)n([C@H]2C[C@H](O)[C@@H](CO)O2)cc1Br | hybridisation | Murine polyoma virus | 63.4 µg/mL |  | inhibition | ME | 88.8%
Cn1cc(C(=O)NCc2ccc(Cl)cc2)c(=O)c2cc(CN3CCOCC3)ccc21 | plaque count | Varicella zoster virus |  | DI varicella isolate | EC50 | HFF | 0.2 µM
CC(N)C12CC3CC(CC(C3)C1)C2 | ELISA | Influenza A virus |  | Influenza A H3N2 isolate 152 | EC50 | MDCK | 14.3 µg/mL
O=C(O)CP(=O)(O)O | cytopathic effect | Varicella zoster virus |  | Oka CF1742-resistant | EC50 | HEL | 51.7 µM
CO/N=C1\CN(c2nc3c(cc2F)c(=O)c(C(=O)O)cn3C2CC2)CC1CN |  | Haemophilus influenzae |  | 24 strains | MIC50 |  | 0.016 µg/mL
Cc1cn([C@@H]2O[C@H](CO)[C@@H](O)[C@@H]2F)c(=O)nc1N | plaque count | Varicella zoster virus | 0.001 µg/mL | OKA | inhibition | HELF | 3%
CC[C@H]1OC(=O)[C@H](C)C(=O)[C@H](C)[C@@H](O[C@@H]2O[C@H](C)C[C@H](N(C)C)[C@H]2O)[C@@]2(C)C[C@@H](C)C(=NC(C)=O)[C@H](C)[C@@H](OC/C(=N\OCc3ccc(-n4cccn4)nc3)CO2)[C@]1(C)O |  | Haemophilus influenzae |  | 25 strains | MIC90 |  | 16 µg/mL
CCCc1cc(=O)oc2c3c(c4c(c12)OC(C)(C)[C@H](O)[C@@H]4O)O[C@H](C)[C@@H](C)[C@@H]3O | virus yield | Measles virus |  | Chicago-1 | EC90 | CV-1 | 0.3 µg/mL
C=CCc1ccc(OC)c(OC)c1 | turbidity | Candida tropicalis |  | 2863 | MIC90 |  | 345 µg/mL
CC(N)CC(C(=O)Nc1cc(C(F)(F)F)cc(C(F)(F)F)c1)C(=O)Nc1cc(C(F)(F)F)cc(C(F)(F)F)c1 |  | Escherichia coli |  | ES142 | MIC |  | >300 µM
CO[C@H]1/C=C/O[C@@]2(C)Oc3c(C)c(O)c4c(O)c(c(/C=N/N5CCN(C6CCCC6)CC5)c(O)c4c3C2=O)NC(=O)/C(C)=C\C=C\[C@H](C)[C@H](O)[C@@H](C)[C@@H](O)[C@@H](C)[C@H](OC(C)=O)[C@@H]1C |  | Mycobacterium avium intracellulare |  | 1023 | MIC |  | 0.5 µg/mL
CCC(C)CC(C)CCCCCCCCC(=O)N[C@H]1C[C@@H](O)[C@H](NCCN)NC(=O)[C@@H]2[C@@H](O)CCN2C(=O)[C@H]([C@H](O)CCN)NC(=O)[C@H]([C@H](O)[C@@H](O)c2ccc(O)cc2)NC(=O)[C@@H]2C[C@@H](O)CN2C(=O)[C@H]([C@@H](C)O)NC1=O | broth dilution | Cryptococcus gattii |  | CBS 11542 | MIC |  | 16 µg/mL
O=c1[nH]c(=O)n([C@H]2C[C@H](O)[C@@H](CO)O2)cc1I | plaque count | Varicella zoster virus | 10 µg/mL | HIRAI | inhibition | HELF | 100%
COc1ccc(CNC(=O)c2c3n(c(=O)n2-c2ccc(OCC(F)(F)F)cc2)CCN(C(=O)c2ccc(Br)c(Cl)c2)C3)c(-n2cccn2)c1 | PCR | Hepatitis B virus |  |  | EC50 | HepG2.117 | <0.1 µM
CCOC(=O)/C=C/[C@H](C[C@@H]1CCNC1=O)NC(=O)[C@@H](CC(=O)[C@@H](NC(=O)c1cc(C)on1)C(C)C)Cc1ccc(F)cc1 | cytopathic effect / visual reading | Rhinovirus |  | Isolate 31 | EC50 | OHIO HELA-I | 0.02 µg/mL
CC(C)c1nc2ccccc2c(=O)n1NC(=O)Nc1cc(C(F)(F)F)cc(C(F)(F)F)c1 |  | Escherichia coli |  | ES142 | MIC |  | >300 µM
CCCC(CCC)C(NC(C)=O)C1C(N=C(N)N)CC(C(=O)O)C1O |  | Influenza A virus |  | Influenza A/Sydney/05/97 (H3N2) | EC50 | MDCK | 0.1 µM
Nc1nc2c(ncn2COC(CO)CO)c(=O)[nH]1 | hybridisation | Human cytomegalovirus |  | C8912 | EC50 | MRC-5 | 0.5 µM
CCCc1cc(=O)oc2cc(OS(=O)(=O)c3ccc(C)cc3)cc(O)c12 | cytopathic effect | Measles virus |  | Chicago | EC50 | CV-1 | 1 µg/mL
C[C@@H](NC(=O)c1c2n(c(=O)n1-c1ccc(OC3CC3)cc1)CCN(C(=O)c1ccc(Br)c(Cl)c1)C2)c1ccc(OC(C)(C)C(N)=O)cc1F | PCR | Hepatitis B virus |  |  | EC50 | HepG2.117 | 0.1–0.5 µM
CCCCCCCCOC(=O)[C@]1(O)C[C@@H](O)[C@@H](O)[C@H](OC(=O)/C=C/c2ccc(O)c(O)c2)C1 | absorbance | Aspergillus nomius |  | SLV 549 | MIC80 |  | 1250 µg/mL
Nc1nc2c(ncn2COC(CO)CO)c(=O)[nH]1 | cytopathic effect | Varicella zoster virus |  | OKA (WILD TYPE) | EC50 | HEL | 1.3 µM
O=C(NCc1ccccc1)c1c2n(c(=O)n1-c1ccc(N3CCOCC3)cc1)CCN(C(=O)c1ccc(Br)c(Cl)c1)C2 | PCR | Hepatitis B virus |  |  | EC50 | HepG2.117 | 0.1–0.5 µM
C/C=C/C/C=C/CCC(=O)[C@H]1O[C@H]1C(N)=O |  | Escherichia coli |  | CDM5 (TLM-R) | MIC |  | 20 µg/mL
CSc1nsc(C2CCCCC2)c1C#N | plaque count | Encephalomyocarditis virus |  | Encephalomyocarditis virus | EC50 | L929 | >50 µM
NC(=O)NNC(=O)Nc1cc(C(F)(F)F)cc(C(F)(F)F)c1 |  | Escherichia coli |  | ES142 | MIC |  | >446 µM
CC(C)N=C(N)/N=C(\N)NOCCCOc1cc(Cl)c(Cl)cc1Cl |  | Mycobacterium avium complex |  | 1409 | MIC |  | 32 µg/mL
C=C(C)C1COc2cc(OC)c3c(c2C1)OC(c1ccccc1)=CC3OC | plaque count | Dengue virus | 25 µM | Type 2/Mexican isolate | inhibition | LLC-MK2 | 59.1%
Nc1nc2c(ncn2COCCO)c(=O)[nH]1 | virus yield | Guinea pig herpesvirus |  | Lymphotropic | EC90 | GPE | 354 µg/mL
Nc1nc(N)c2ncn(CCOCP(=O)(O)O)c2n1 | cytopathic effect | Varicella zoster virus |  | Oka penciclovir-resistant/B | EC50 | HEL | 11.3 µM
CSc1nsc(-c2ccncc2)c1C#N | plaque count | Measles virus |  | Edmonston | EC50 | HEP-2 | >2.5 µM
CN(NC(=O)Nc1cc(C(F)(F)F)cc(C(F)(F)F)c1)C(=O)Nc1cc(C(F)(F)F)cc(C(F)(F)F)c1 |  | Klebsiella pneumoniae |  | KL21 | MIC |  | 300 µM
CCc1cn([C@@H]2O[C@H](CO)[C@@H](O)[C@@H]2O)c(=O)[nH]c1=O | plaque count | Varicella zoster virus | 1000 µg/mL | Kawaguchi | inhibition | HELF | 86%
O=C(Nc1cc(C(F)(F)F)cc(C(F)(F)F)c1)Nc1cc(C(F)(F)F)cc(C(F)(F)F)c1 |  | Klebsiella pneumoniae |  | KL21 | MIC |  | >300 µM
O=C(NCc1ccccc1-n1cccn1)c1c2n(c(=O)n1-c1ccc(OCC(F)(F)F)cc1)CCN(C(=O)c1ccc(Br)c(Cl)c1)C2 | PCR | Hepatitis B virus |  |  | EC50 | HepG2.117 | <0.1 µM
Cc1cn([C@@H]2O[C@H](CO)[C@@H](O)[C@@H]2O)c(=O)[nH]c1=O | plaque count | Varicella zoster virus | 0.01 µg/mL | Ohtomo | inhibition | HELF | 94%
CSc1nsc(-c2ccc(Cl)cc2)c1C#N | plaque count | Measles virus |  | Edmonston | EC50 | HEP-2 | >5 µM
CCC(CC)[C@H](NC(C)=O)[C@@H]1[C@H](O)[C@@H](C(=O)O)C[C@H]1N=C(N)N |  | Influenza A virus |  | H1N1 A/Beijing/252/95 | EC50 | MDCK | 0.36 µM
C[C@@H](NC(=O)c1c2n(c(=O)n1-c1ccc(OC3CC3)cc1)CCN(C(=O)c1ccc(Br)c(Cl)c1)C2)c1ccccc1-n1cncn1 | PCR | Hepatitis B virus |  |  | EC50 | HepG2.2.15 | 0.5–5 µM
Nc1ncnc2c1ncn2[C@@H]1C[C@H](NC=O)[C@@H](O)[C@H]1O |  | Pichinde virus |  |  | EC50 | HFF | >100 µg/mL
Nc1nc2c(ncn2COCCO)c(=O)[nH]1 | plaque count | Varicella zoster virus | 0.1 µg/mL | YS | inhibition | HELF | 0%
CCCc1cc(=O)oc2cc(OC(=O)CC)cc(O)c12 | virus yield | Measles virus |  | Chicago-1 | EC50 | CV-1 | <40 µg/mL
CSc1nsc(-c2ccc(Cl)cc2Cl)c1C#N | plaque count | Encephalomyocarditis virus |  | Encephalomyocarditis virus | EC50 | L929 | >8 µM
Cc1ccc(C)n1-c1ccc(C(=O)O)c(O)c1 | luciferase / cell fusion | HIV-1 |  | 93IN101 R5 CLADE C | EC90 | PBMC/5.25M7 | 37.51 µM
CCCC(CCC)C(NC(C)=O)C1CC(C(=O)O)CC1N=C(N)N |  | Influenza B virus |  | Harbin/07/94 | EC50 | MDCK | 0.06 µM
O=C(NNC(=O)Nc1cc(C(F)(F)F)cc(C(F)(F)F)c1)Nc1cc(C(F)(F)F)cc(C(F)(F)F)c1 |  | Escherichia coli |  | ES142 | MIC |  | >300 µM
Cn1ncc2cc(-n3c(C(=O)NCc4ccccc4)c4n(c3=O)CCN(C(=O)c3ccc(Br)c(Cl)c3)C4)ccc21 | PCR | Hepatitis B virus |  |  | EC50 | HepG2.117 | 0.1–0.5 µM
O=C(O)P(=O)(O)O | cytopathic effect | Varicella zoster virus |  | OKA (WILD TYPE) | EC50 | HEL | 39.8 µM
CCCc1cc(=O)oc2cc(OC(=O)C(C)(C)C)c3c(c12)OC(C)(C)C=C3 | cytopathic effect | Measles virus |  | Chicago-1 | EC50 | CV-1 | 0.6 µg/mL
O=C(NCc1ccccc1-n1cc(F)cn1)c1c2n(c(=O)n1-c1ccc(OCC(F)(F)F)cc1)CCN(C(=O)c1ccc(Br)c(Cl)c1)C2 | PCR | Hepatitis B virus |  |  | EC50 | HepG2.117 | <0.1 µM
O=C(NNC(=O)Nc1cc(C(F)(F)F)cc(C(F)(F)F)c1)Nc1ccccc1 |  | Escherichia coli |  | ES142 | MIC |  | >200 µM

The last 3 rows once more:

{"compound": "CCCc1cc(=O)oc2cc(OC(=O)C(C)(C)C)c3c(c12)OC(C)(C)C=C3", "read by": "cytopathic effect", "species": "Measles virus", "strain or isolate": "Chicago-1", "measure": "EC50", "cells": "CV-1", "value": "0.6 µg/mL"}
{"compound": "O=C(NCc1ccccc1-n1cc(F)cn1)c1c2n(c(=O)n1-c1ccc(OCC(F)(F)F)cc1)CCN(C(=O)c1ccc(Br)c(Cl)c1)C2", "read by": "PCR", "species": "Hepatitis B virus", "measure": "EC50", "cells": "HepG2.117", "value": "<0.1 µM"}
{"compound": "O=C(NNC(=O)Nc1cc(C(F)(F)F)cc(C(F)(F)F)c1)Nc1ccccc1", "species": "Escherichia coli", "strain or isolate": "ES142", "measure": "MIC", "value": ">200 µM"}

ECn is the concentration giving n% inhibition of infection, replication or growth. a–b is a range or a potency band. A number after MIC or MFC names an inhibition level or a share of isolates. Blank or dashed fields: not listed here. Neighbouring rows are from separate reports.